Assay results reported in ChEMBL document CHEMBL2434870, “Design of substituted imidazolidinylpiperidinylbenzoic acids as chemokine receptor 5 antagonists: potent inhibitors of R5 HIV-1 replication” (J Med Chem, 2013).

The chains behind the UniProt entries cited, without tags or fusion partners.
UniProt P51681, whole entry, looked up: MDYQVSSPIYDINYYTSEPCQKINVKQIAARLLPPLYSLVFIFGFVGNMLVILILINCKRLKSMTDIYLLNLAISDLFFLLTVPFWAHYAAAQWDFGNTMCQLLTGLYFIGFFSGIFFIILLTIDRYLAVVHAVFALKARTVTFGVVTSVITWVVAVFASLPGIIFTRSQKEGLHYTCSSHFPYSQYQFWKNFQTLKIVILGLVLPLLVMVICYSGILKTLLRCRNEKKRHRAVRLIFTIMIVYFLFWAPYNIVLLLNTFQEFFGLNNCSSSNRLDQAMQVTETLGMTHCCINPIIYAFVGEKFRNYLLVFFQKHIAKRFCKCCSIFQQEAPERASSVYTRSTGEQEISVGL

Each molecule was assayed against C-C chemokine receptor type 5 (Homo sapiens, UniProt P51681) (assay: Inhibition of CCR5 (unknown origin) expressed in human HeLa cells assessed as inhibition of interaction of CHO cells expressing HIV-1 JRFLenv and HIV-1 Tat and human HeLa cells expressing CD4 after 20 hrs by beta-galactosidase reporter gene assay relative to AGP).
Format: cell-based

Row | SMILES | fold change (FC)
1 | O=C(O)c1ccc(Sc2ccc(CN3CCC(N4C(=O)N(C5CCOCC5)C[C@H]4c4ccccc4)CC3)cn2)cc1 | 0.9
2 | Cc1nc(Sc2ccc(C(=O)O)cc2)ccc1CN1CCC(N2C(=O)N(C3CCOCC3)C[C@H]2c2ccccc2)CC1 | 1
3 | O=C(O)c1ccc(Oc2ccc(CN3CCC(N4C(=O)N(C5CCOCC5)C[C@H]4c4cccc(Cl)c4)CC3)cn2)cc1 | 1.1
4 | O=C(O)c1ccc(Oc2ccc(CN3CCC(N4C(=O)N(C5CCOCC5)C[C@H]4c4ccccc4)CC3)cn2)cc1 | 0.7
5 | O=C(O)c1ccc(Oc2ccc(CN3CCC(N4C(=O)N(C5CCOCC5)C[C@H]4c4ccccc4)CC3)cc2)cc1 | 1
6 | Cc1nc(Nc2ccc(C(=O)O)cc2)ncc1CN1CCC(N2C(=O)N(C3CCOCC3)C[C@H]2c2cccc(Cl)c2)CC1 | 1.8
